PubChem BioAssay AID624099 | ICCB-Longwood, 2012
Aim: 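Human genes that papillomavirus E2 requires to repress the HPV18 LCR promoter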 (primary screen). System: human C33A cervical carcinoma cells (HPV-negative) stably expressing BPV1 E2 and an HPV18 LCR luciferase reporter. Reagents: siRNA pool against human genes, 40 nM. Time to read-out: 72 h. Measured: 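Per-well luciferase luminescence, z-scored on each plate against the plate mean and SD with control wells left out, then averaged across three replicate plates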. Direction: mean z-score and z-score: higher = stronger reporter signal, weaker E2 silencing. Rule for the call: 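Mean z ≥ 2 together with z ≥ 2 in two or more of the three replicates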.
In all, the deposit lists about 21,000 reagents; below is an unselected part. Over the whole deposit, 497 (2.4%) are marked active. 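Higher z means weaker E2 silencing; only reporter increases were scored, and knock-downs that hurt cell survival may mask genuine repressor factors.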

Against EXT1 the deposit lists mean z-score 0.25; z-score, replicate A = 0.21; z-score, replicate B = 0.12; z-score, replicate C = 0.42; inactive.
ANGPT1 gave mean z-score 0.21; z-score, replicate A = 0.3; z-score, replicate B = 0.18; z-score, replicate C = 0.16; inactive.
IGHMBP2 scored mean z-score -0.29; z-score, replicate A = -0.17; z-score, replicate B = -0.25; z-score, replicate C = -0.44; inactive.
Knock-down of ZNF367 gave: mean z-score 0.02; z-score, replicate A = -0.22; z-score, replicate B = 0.13; z-score, replicate C = 0.16; inactive.
APOBEC1 scored mean z-score -0.96; z-score, replicate A = -0.54; z-score, replicate B = -1.27; z-score, replicate C = -1.06; inactive.
Silencing of AP5Z1 came out at: mean z-score -0.5; z-score, replicate A = -0.42; z-score, replicate B = -0.43; z-score, replicate C = -0.65; inactive.
OR4F21 showed mean z-score -0.68; z-score, replicate A = -1.06; z-score, replicate B = -0.38; z-score, replicate C = -0.6; inactive.
Against CYTIP, the values are mean z-score -0.6; z-score, replicate A = -0.53; z-score, replicate B = -0.78; z-score, replicate C = -0.49; inactive.
CTF1 scored mean z-score -0.49; z-score, replicate A = -0.8; z-score, replicate B = -0.17; z-score, replicate C = -0.49; inactive.
Depletion of CACNA1H resulted in: mean z-score 1.13; z-score, replicate A = 1.11; z-score, replicate B = 1.12; z-score, replicate C = 1.16; inactive.
HAUS4 gave mean z-score -0.42; z-score, replicate A = -0.57; z-score, replicate B = 0.08; z-score, replicate C = -0.78; inactive.
LOC388915 (retired record) showed mean z-score -0.46; z-score, replicate A = -0.49; z-score, replicate B = -0.63; z-score, replicate C = -0.26; inactive.
Silencing of P3H1 gave: mean z-score -0.33; z-score, replicate A = -0.46; z-score, replicate B = -0.53; z-score, replicate C = 0.01; inactive.
With knock-down of IMPA2, the screen gave mean z-score -0.81; z-score, replicate A = -1.03; z-score, replicate B = -0.7; z-score, replicate C = -0.7; inactive.
Knock-down of CBR4 came out at: mean z-score -0.65; z-score, replicate A = -0.74; z-score, replicate B = -0.81; z-score, replicate C = -0.39; inactive.
Against ARF5, the values are mean z-score -0.91; z-score, replicate A = -0.6; z-score, replicate B = -0.92; z-score, replicate C = -1.2; inactive.
Against RPS3AP6, the entry reads mean z-score 0.38; z-score, replicate A = 0.7; z-score, replicate B = -0.01; z-score, replicate C = 0.45; inactive.
After knock-down of GLP1R the results were mean z-score -0.64; z-score, replicate A = -0.45; z-score, replicate B = -0.86; z-score, replicate C = -0.61; inactive.
Knock-down of SMIM14 gave: mean z-score 0.9; z-score, replicate A = 1.27; z-score, replicate B = 0.69; z-score, replicate C = 0.74; inactive.
After knock-down of CFAP263 the results were mean z-score -2.05; z-score, replicate A = -2.1; z-score, replicate B = -2.33; z-score, replicate C = -1.71; inactive.
Against LOC387870 (retired record), the values are mean z-score -0.06; z-score, replicate A = -0.28; z-score, replicate B = 0.03; z-score, replicate C = 0.07; inactive.

Sorted by “mean z-score” (high to low): 2 of the entries above
ZNF367 — mean z-score: 0.02; z-score, replicate A: -0.22; z-score, replicate B: 0.13; z-score, replicate C: 0.16; Outcome: inactive
APOBEC1 — mean z-score: -0.96; z-score, replicate A: -0.54; z-score, replicate B: -1.27; z-score, replicate C: -1.06; Outcome: inactive
